Pooled drug test results. Numbers come from NIAID ChemDB, via PubChem.

Common to all: growth or infection tests; agent: Epstein-Barr virus

Neighbouring rows are from separate reports. ECn is the concentration giving n% inhibition of infection, replication or growth. An empty or dashed field is not shown.

compound | read by | measure | cell line | value
Nc1nc2c(ncn2COC(CO)CO)c(=O)[nH]1 | - | EC50 | H-1 | 5 µM
OC[C@H]1O[C@@H](n2c(Br)nc3cc(Cl)c(Cl)cc32)[C@H](O)[C@@H]1O | ELISA | EC50 | DAUDI | >74 µM
Nc1nc2c(ncn2COC(CO)CO)c(=O)[nH]1 | - | EC90 | H-1 | 5 µM
O[C@@H]1[C@H](O)[C@H](O)CO[C@H]1n1c(Br)nc2cc(Cl)c(Cl)cc21 | hybridisation | EC50 | DAUDI | 10 µM
Cc1cn([C@@H]2O[C@H](CO)[C@@H](O)[C@@H]2F)c(=O)[nH]c1=O | - | EC90 | H-1 | 0.1 µM
Cn1cc(C(=O)NCc2ccc(Cl)cc2)c(=O)c2cc(CN3CCOCC3)ccc21 | ELISA | EC50 | DAUDI | 0.9 µM
Nc1nc(OCc2ccccc2)c2ncn(/C=C3/C[C@@H]3CO)c2n1 | hybridisation | EC50 | Akata | 2.6 µM
COC(=O)C(C)NP(=O)(OC[C@@H]1C/C1=C/n1cc(N)c(=O)[nH]c1=O)Oc1ccccc1 | hybridisation | EC50 | H-1 | 16 µM
CC(C)Sc1nc(N)nc2c1ncn2/C=C1/C[C@@H]1CO | hybridisation | EC50 | Akata | 0.8 µM
Cc1cn([C@H]2O[C@@H](CO)[C@H](O)[C@H]2F)c(=O)[nH]c1=O | - | EC50 | H-1 | 5 µM
Nc1ccn(C[C@H]2COP(=O)(O)CO2)c(=O)n1 | hybridisation | EC50 | DAUDI | >166 µM
Nc1nc2c(ncn2COCCO)c(=O)[nH]1 | hybridisation | EC50 | DAUDI | 3.6 µM
CCCCCCSc1nc(N)nc2c1ncn2/C=C1/C[C@@H]1CO | hybridisation | EC50 | Akata | 14 µM
Nc1ncnc2ncn(/C=C3/C(F)C3(CO)CO)c12 | hybridisation | EC50 | Akata | 97.3 µM
O=C(NCc1ccc(Cl)cc1)c1cn2c3c(cc(CN4CCOCC4)cc3c1=O)OC(c1cccnc1)C2 | antigen | EC50 | DAUDI | 0.9 µM
Nc1cn(C=C2C[C@H]2CO)c(=O)[nH]c1=O | ELISA | EC50 | DAUDI | <0.41 µM
CCCSc1nc(N)nc2c1ncn2/C=C1/C[C@@H]1CO | hybridisation | EC50 | Akata | 1.8 µM
Nc1nc2c(ncn2[C@@H]2C[C@H](O)[C@@H](O)[C@H]2O)c(=O)[nH]1 | ELISA | EC50 | DAUDI | 0.78 µg/mL
CCCCCCCCCCCCOCCCOP(=O)(O)CO[C@H](CO)Cn1ccc(N)nc1=O | hybridisation | EC50 | DAUDI | 0.4 µM
CN[C@H]1C[C@@H](n2cnc3c(N)ncnc32)[C@H](O)[C@@H]1O | - | EC50 | HFF | 24.9 µg/mL
CCCCCCCC/C=C\CCCCCCCOCCCOP(=O)(O)CO[C@H](CO)Cn1ccc(N)nc1=O | hybridisation | EC50 | DAUDI | 0.4 µM
Nc1nc(SC2CCCC2)c2ncn(/C=C3/C[C@@H]3CO)c2n1 | hybridisation | EC50 | Akata | 1.4 µM
O=c1[nH]c(=O)n([C@H]2C[C@H](O)[C@@H](CO)O2)cc1/C=C/Br | cytopathic effect | EC50 | P3HR-1 | 0.055 µM
COC(=O)C(C)NP(=O)(OC[C@@H]1C/C1=C\n1cc(C)c(=O)[nH]c1=O)Oc1ccccc1 | ELISA | EC50 | DAUDI | >100 µM
COc1nc(N)nc2c1ncn2/C=C1/C[C@@H]1CO | hybridisation | EC50 | Akata | 0.3 µM

3 of the rows above, restated:

compound	read by	measure	cell line	value
CCCCCCCC/C=C\CCCCCCCOCCCOP(=O)(O)CO[C@H](CO)Cn1ccc(N)nc1=O	hybridisation	EC50	DAUDI	0.4 µM
O[C@@H]1[C@H](O)[C@H](O)CO[C@H]1n1c(Br)nc2cc(Cl)c(Cl)cc21	hybridisation	EC50	DAUDI	10 µM
Nc1cn(C=C2C[C@H]2CO)c(=O)[nH]c1=O	ELISA	EC50	DAUDI	<0.41 µM